How the values were obtained:
[1] = target: Nicotinic acetylcholine receptor alpha1/beta1/epsilon/delta (Mus musculus) (UniProt P04756+P09690+P02716+P20782); assay: Antagonist activity at mouse alpha1beta1deltaepsilon nACh receptor expressed in Xenopus oocyte assessed as inhibition of acetylcholine-induced response at -70 mV holding potential by measuring ratio of IC50 by voltage-clamp based electrophysiological assay relative to GeXIVA; conditions: filed as antagonist
[2] = Selectivity ratio of IC50 for mouse alpha1beta1deltaepsilon nACh receptor to IC50 for rat alpha9alpha10 nACh receptor

Amino acid sequences for entries named in this document (tags omitted). Residues count along the entry.
UniProt P04756, 21-457 limits assumed: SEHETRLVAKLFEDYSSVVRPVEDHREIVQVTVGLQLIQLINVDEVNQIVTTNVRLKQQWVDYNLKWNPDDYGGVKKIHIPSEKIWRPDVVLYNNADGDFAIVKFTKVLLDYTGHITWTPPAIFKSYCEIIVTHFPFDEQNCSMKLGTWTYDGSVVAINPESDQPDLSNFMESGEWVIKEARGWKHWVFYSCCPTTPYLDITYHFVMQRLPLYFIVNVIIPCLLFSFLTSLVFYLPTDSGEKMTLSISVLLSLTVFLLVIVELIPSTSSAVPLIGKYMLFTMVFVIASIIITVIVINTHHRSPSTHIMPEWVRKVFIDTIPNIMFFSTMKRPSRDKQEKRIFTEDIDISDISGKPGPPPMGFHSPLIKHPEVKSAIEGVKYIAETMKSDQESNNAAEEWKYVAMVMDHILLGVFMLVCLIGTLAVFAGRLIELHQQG
UniProt P09690, 24-501 partner limits assumed: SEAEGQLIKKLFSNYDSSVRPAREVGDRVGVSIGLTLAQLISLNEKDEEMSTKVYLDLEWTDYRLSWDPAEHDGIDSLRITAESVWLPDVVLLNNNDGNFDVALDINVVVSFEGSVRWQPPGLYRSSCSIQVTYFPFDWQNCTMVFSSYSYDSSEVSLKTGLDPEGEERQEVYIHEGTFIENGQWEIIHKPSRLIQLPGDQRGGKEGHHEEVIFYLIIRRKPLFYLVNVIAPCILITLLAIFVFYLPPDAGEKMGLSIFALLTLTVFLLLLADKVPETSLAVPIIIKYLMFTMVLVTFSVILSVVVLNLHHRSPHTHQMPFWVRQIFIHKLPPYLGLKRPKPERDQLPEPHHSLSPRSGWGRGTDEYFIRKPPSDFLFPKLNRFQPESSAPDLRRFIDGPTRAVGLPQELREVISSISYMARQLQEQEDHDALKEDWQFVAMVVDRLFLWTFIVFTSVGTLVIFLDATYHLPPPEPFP
UniProt P02716, 25-520 partner limits assumed: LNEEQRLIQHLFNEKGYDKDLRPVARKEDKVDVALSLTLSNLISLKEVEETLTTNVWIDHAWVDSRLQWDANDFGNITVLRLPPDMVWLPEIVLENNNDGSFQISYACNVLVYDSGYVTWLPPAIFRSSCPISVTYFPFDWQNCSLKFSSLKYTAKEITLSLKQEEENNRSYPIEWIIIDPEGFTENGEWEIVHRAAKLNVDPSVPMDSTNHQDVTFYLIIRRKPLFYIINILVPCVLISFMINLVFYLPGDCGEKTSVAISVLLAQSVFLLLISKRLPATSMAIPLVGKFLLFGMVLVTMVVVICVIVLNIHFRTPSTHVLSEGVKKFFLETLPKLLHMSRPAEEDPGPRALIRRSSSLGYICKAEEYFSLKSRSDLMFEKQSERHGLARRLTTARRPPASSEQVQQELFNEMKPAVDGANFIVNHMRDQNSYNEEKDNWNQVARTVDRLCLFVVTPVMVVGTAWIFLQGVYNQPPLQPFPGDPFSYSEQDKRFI
UniProt P20782, 21-493 partner limits assumed: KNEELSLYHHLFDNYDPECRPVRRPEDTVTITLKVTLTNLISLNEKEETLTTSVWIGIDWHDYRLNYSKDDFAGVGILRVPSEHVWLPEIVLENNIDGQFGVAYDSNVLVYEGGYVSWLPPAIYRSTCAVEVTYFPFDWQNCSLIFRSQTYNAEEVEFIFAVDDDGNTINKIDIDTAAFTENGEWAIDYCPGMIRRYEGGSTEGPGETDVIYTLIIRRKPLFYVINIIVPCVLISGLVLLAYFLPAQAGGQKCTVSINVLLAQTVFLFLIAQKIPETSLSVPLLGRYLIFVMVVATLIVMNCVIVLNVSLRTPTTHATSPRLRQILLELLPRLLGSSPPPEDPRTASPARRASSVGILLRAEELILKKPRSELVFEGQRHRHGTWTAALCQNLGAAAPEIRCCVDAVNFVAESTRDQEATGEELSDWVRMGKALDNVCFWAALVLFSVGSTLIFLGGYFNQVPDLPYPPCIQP

Structure (SMILES)	Ratio IC50 [1]	Ratio IC50 [2]
CC[C@H](C)[C@@H]1NC(=O)[C@H](CCCNC(=N)N)NC(=O)[C@H](CCCNC(=N)N)NC(=O)[C@@H]2CSSC[C@H](NC(=O)[C@H](Cc3ccc(O)cc3)NC(=O)[C@H](CCCNC(=N)N)NC(=O)CNC(=O)[C@H](CO)NC(=O)[C@H](CO)NC(=O)[C@H](CCCNC(=N)N)NC(=O)[C@@H](NC(=O)[C@@H](N)[C@@H](C)O)CSSC[C@@H](C(=O)N[C@H](C(=O)O)C(C)C)NC(=O)[C@H](C)NC(=O)[C@H](CC(=O)O)NC(=O)[C@H]([C@@H](C)O)NC1=O)C(=O)N[C@@H](CCCNC(=N)N)C(=O)N[C@@H](CO)C(=O)N1CCC[C@H]1C(=O)N[C@@H](Cc1ccc(O)cc1)C(=O)N[C@@H](CC(=O)O)C(=O)N[C@@H](C)C(=O)N[C@@H](CCCNC(=N)N)C(=O)N[C@@H](CCCNC(=N)N)C(=O)N[C@@H](CCCNC(=N)N)C(=O)N[C@@H](Cc1ccc(O)cc1)C(=O)N2	0.8	18.8
CC(C)[C@H](NC(=O)[C@@H]1CSSC[C@H](NC(=O)[C@H](Cc2ccc(O)cc2)NC(=O)[C@H](CCCNC(=N)N)NC(=O)[C@H](CCCNC(=N)N)NC(=O)[C@H](CCCNC(=N)N)NC(=O)[C@H](CCCNC(=N)N)NC(=O)[C@H](CC(=O)O)NC(=O)[C@H](Cc2ccc(O)cc2)NC(=O)[C@@H]2CCCN2C(=O)[C@H](CO)NC(=O)[C@H](CCCNC(=N)N)NC(=O)[C@@H]2CSSC[C@H](NC(=O)[C@@H](N)[C@@H](C)O)C(=O)N[C@@H](CCCNC(=N)N)C(=O)N[C@@H](CO)C(=O)N[C@@H](CO)C(=O)NCC(=O)N[C@@H](CCCNC(=N)N)C(=O)N[C@@H](Cc3ccc(O)cc3)C(=O)N2)C(=O)N[C@@H](CCCNC(=N)N)C(=O)N[C@@H](CCCNC(=N)N)C(=O)N[C@@H](C)C(=O)N[C@@H]([C@@H](C)O)C(=O)N[C@@H](CC(=O)O)C(=O)N[C@@H](C)C(=O)N1)C(=O)O	9.3	302
CC[C@H](C)[C@@H]1NC(=O)[C@H](CCCNC(=N)N)NC(=O)[C@H](CCCNC(=N)N)NC(=O)[C@@H]2CSSC[C@H](NC(=O)[C@H](Cc3ccc(O)cc3)NC(=O)[C@H](CCCNC(=N)N)NC(=O)CNC(=O)[C@H](CO)NC(=O)[C@H](CO)NC(=O)[C@H](CCCNC(=N)N)NC(=O)[C@@H](NC(=O)[C@H](C)N)CSSC[C@@H](C(=O)N[C@H](C(=O)O)C(C)C)NC(=O)[C@H](C)NC(=O)[C@H](C)NC(=O)[C@H]([C@@H](C)O)NC1=O)C(=O)N[C@@H](CCCNC(=N)N)C(=O)N[C@@H](CO)C(=O)N1CCC[C@H]1C(=O)N[C@@H](Cc1ccc(O)cc1)C(=O)N[C@@H](CC(=O)O)C(=O)N[C@@H](CCCNC(=N)N)C(=O)N[C@@H](CCCNC(=N)N)C(=O)N[C@@H](CCCNC(=N)N)C(=O)N[C@@H](CCCNC(=N)N)C(=O)N[C@@H](Cc1ccc(O)cc1)C(=O)N2	1.8	56.7
CC[C@H](C)[C@@H]1NC(=O)[C@H](CCCNC(=N)N)NC(=O)[C@H](CCCNC(=N)N)NC(=O)[C@@H]2CSSC[C@H](NC(=O)[C@H](Cc3ccc(O)cc3)NC(=O)[C@H](CCCNC(=N)N)NC(=O)[C@H](C)NC(=O)[C@H](CO)NC(=O)[C@H](CO)NC(=O)[C@H](CCCNC(=N)N)NC(=O)[C@@H](NC(=O)[C@@H](N)[C@@H](C)O)CSSC[C@@H](C(=O)N[C@H](C(=O)O)C(C)C)NC(=O)[C@H](C)NC(=O)[C@H](CC(=O)O)NC(=O)[C@H]([C@@H](C)O)NC1=O)C(=O)N[C@@H](CCCNC(=N)N)C(=O)N[C@@H](CO)C(=O)N1CCC[C@H]1C(=O)N[C@@H](Cc1ccc(O)cc1)C(=O)N[C@@H](CC(=O)O)C(=O)N[C@@H](CCCNC(=N)N)C(=O)N[C@@H](CCCNC(=N)N)C(=O)N[C@@H](CCCNC(=N)N)C(=O)N[C@@H](CCCNC(=N)N)C(=O)N[C@@H](Cc1ccc(O)cc1)C(=O)N2	0.9	45.3
